Mutational scan of HIV-1 Vif (LAI) in cells with APOBEC3G

Source: Langley et al. 2025, preprint (doi:10.1101/2025.10.20.683452), supplementary data.

Protein: Vif of HIV-1 LAI (a laboratory-adapted subtype B strain). Residues 12-115 were scanned and are shown below; the first letter is residue 12.
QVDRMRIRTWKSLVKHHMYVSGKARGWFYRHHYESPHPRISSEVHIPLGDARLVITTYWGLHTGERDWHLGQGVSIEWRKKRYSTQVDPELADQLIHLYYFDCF

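Pooled viruses with one designed change each in Vif went through two 72 h rounds in SupT1 cells expressing APOBEC3G. Each of three replicates was sequenced after round two and set against the merged round-one pool.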

Scale: log2 enrichment, wild type = 0; negative values mean that the variant was depleted.
Each entry names the wild-type residue, its position and the residue put in its place.
All changes here are to phenylalanine.
The median of three replicates is given, with the replicates in brackets.
Input reads are the counts in the merged round-one pool, before selection.
Not every substitution is listed.
The authors note that some positive scores may be noise, and some enriched variants failed when tested singly.
Replicates agree only moderately (rank correlation about 0.4-0.65); scores from under about 50 input reads tend to be too high.

V13F (input reads 446): -0.75 (-0.68 / -2.39 / -0.75).
R15F (input reads 29): 2.50 (1.45 / 4.31 / 2.50).
M16F (input reads 691): -0.10 (-0.10 / -2.24 / 4.34).
I18F (input reads 455): -3.18 (-1.55 / -3.25 / -3.18).
R19F (input reads 1427): 0.29 (2.15 / -1.87 / 0.29).
T20F (input reads 220): -0.60 (-0.60 / 2.53 / -1.05).
W21F (input reads 607): -1.03 (-0.86 / -2.21 / -1.03).
S23F (input reads 383): -2.94 (-1.85 / -4.48 / -2.94).
L24F (input reads 487): -1.01 (-1.01 / 1.53 / -1.25).
K26F (input reads 35): 2.77 (2.77 / 4.18 / 0.73).
H27F (input reads 29): 1.87 (1.87 / 4.05 / 0.09).
H28F (input reads 63): 0.59 (0.59 / 4.47 / -0.34).
M29F (input reads 442): 1.01 (0.21 / 1.16 / 1.01).
Y30F (input reads 860): -1.14 (-1.14 / -2.28 / 1.88).
V31F (input reads 1590): -3.22 (-1.99 / -3.67 / -3.22).
S32F (input reads 642): 1.22 (2.48 / 1.22 / -0.85).
G33F (input reads 341): -2.99 (-3.02 / -2.99 / -1.15).
A35F (input reads 450): -3.02 (-3.02 / -3.24 / -1.76).
R36F (input reads 436): -0.99 (-0.83 / -2.52 / -0.99).
G37F (input reads 379): -0.38 (-0.38 / 2.44 / -0.57).
Y40F (input reads 991): -1.61 (-1.81 / 0.23 / -1.61).
H42F (input reads 465): -1.34 (0.03 / -2.09 / -1.34).
Y44F (input reads 913): -2.24 (-2.05 / -3.48 / -2.24).
E45F (input reads 129): 2.06 (2.06 / 4.40 / 1.19).
S46F (input reads 461): -2.09 (-2.45 / -2.09 / -1.07).
P47F (input reads 37): 0.58 (0.58 / 4.92 / 0.12).
H48F (input reads 194): -5.43 (1.79 / -6.98 / -5.43).
R50F (input reads 445): -2.46 (-2.46 / 0.37 / -2.72).
S52F (input reads 45): 0.59 (0.59 / 5.06 / 0.12).
V55F (input reads 453): -3.56 (-3.86 / -3.56 / -2.95).
P58F (input reads 448): -1.77 (-1.77 / -3.77 / 0.97).
L59F (input reads 906): -0.44 (-1.26 / -0.44 / 0.71).
L64F (input reads 131): -4.08 (-4.39 / -4.08 / -2.06).
I66F (input reads 85): 2.86 (-0.32 / 2.86 / 4.35).
T67F (input reads 866): -3.48 (-3.03 / -3.84 / -3.48).
Y69F (input reads 425): -2.38 (-2.38 / -4.66 / -1.91).
W70F (input reads 469): -1.95 (2.83 / -2.99 / -1.95).
G71F (input reads 299): -1.30 (-0.94 / -2.85 / -1.30).
T74F (input reads 1600): -2.23 (-1.73 / -3.57 / -2.23).
G75F (input reads 365): -3.84 (-2.42 / -3.84 / -4.76).
E76F (input reads 445): -2.71 (-2.71 / -0.04 / -2.94).
R77F (input reads 391): -1.64 (-1.46 / -3.09 / -1.64).
H80F (input reads 793): -2.36 (-0.83 / -3.16 / -2.36).
L81F (input reads 508): 1.08 (-1.46 / 1.40 / 1.08).
Q83F (input reads 48): 2.78 (2.78 / 4.31 / 0.70).
G84F (input reads 907): 0.67 (1.61 / 0.30 / 0.67).

4 of these entries, quoted again:

{"mutation": "T67F", "input reads": "866", "median log2 enrichment": "-3.48 (-3.03 / -3.84 / -3.48)"}
{"mutation": "Y40F", "input reads": "991", "median log2 enrichment": "-1.61 (-1.81 / 0.23 / -1.61)"}
{"mutation": "K26F", "input reads": "35", "median log2 enrichment": "2.77 (2.77 / 4.18 / 0.73)"}
{"mutation": "Y69F", "input reads": "425", "median log2 enrichment": "-2.38 (-2.38 / -4.66 / -1.91)"}